Measured values from several laboratories, pooled; numbers as filed in NIAID ChemDB.

Common to all: whole-cell or culture tests; agent: Hepatitis B virus; measure: EC50

Neighbouring rows are from separate reports.

SMILES,strain or isolate,cell line,result
Cc1cn([C@@H]2C[C@H](O)[C@H](CO)O2)c(=O)[nH]c1=O,-,2.2.15,>10 µM
Nc1nc(=O)n([C@@H]2CC[C@H](CO)O2)cc1F,-,HepG2 2.2.15,0.2 µM
Nc1ccn([C@@H]2C=C(F)[C@H](CO)O2)c(=O)n1,RTM204,HEPAD79,<2.3 µM
CCCCCCCCCN1C[C@H](O)[C@@H](O)[C@H](O)[C@H]1CO,-,HepG2 2.2.15,1–10 µM
Nc1ncnc2c1ncn2CCOCP(=O)(O)O,-,HepAD38,0.05 µg/mL
Nc1ncnc2c1ncn2CCOCP(=O)(O)O,-,HepG2.2.15,0.465 µM
O[C@@H]1C(n2c(Cl)nc3cc(Cl)c(Cl)cc32)OC[C@@H]1O,-,-,80 µM
Nc1nc(=O)n([C@@H]2C=C(F)[C@H](CO)O2)cc1F,RTM204,HepAD38,<0.22 µM
CCCCC(=O)SCCOP(=O)(OCCOCn1cnc2c(=O)[nH]c(N)cc21)OCCSC(=O)CCCC,-,-,0.2 µM
Cc1cn([C@H]2O[C@@H](CO)[C@H](O)[C@H]2F)c(=O)[nH]c1=O,M550I,-,>100 µM
COCCCCCCCCCN1C[C@H](O)[C@@H](O)[C@H](O)[C@H]1CO,-,HepG2 2.2.15,3 µM
Nc1ncnc2c1ncn2[C@H]1C[C@H](O)[C@@H](COP([O-])(=S)O[C@H]2C[C@H](n3ccc(=O)[nH]c3=O)O[C@@H]2CO)O1,-,HepG2.2.15,0.3 µM
Nc1ccn(CC#CCO)c(=O)n1,-,2.2.15,>100 µM
OC[C@@H]1[C@@H](O)[C@H](O)[C@@H](O)CN1CCCCCCCCCCN1C[C@H](O)[C@@H](O)[C@H](O)[C@H]1CO,-,HepG2 2.2.15,>100 µM
Nc1ccn([C@@H]2CS[C@H](CO)O2)c(=O)n1,M204V,-,0.96 µM
Nc1ncnc2c1ncn2CCOCP(=O)(O)O,WILD TYPE,HepG2,0.08 µM
Nc1nc(=O)n(CC#CCO)cc1F,-,2.2.15,100 µM
Nc1ccn([C@@H]2CS[C@H](CO)O2)c(=O)n1,WILD TYPE,Huh7,0.56 µM
Nc1nc(N)c(C=O)c(OCCOCP(=O)(O)O)n1,-,HEPAD79,2.6 µg/mL
Cc1cn([C@H]2C=C[C@@H](CO)O2)c(=O)[nH]c1=O,-,HepG2 2.2.15,>100 µM
Nc1nc(=O)n([C@@H]2C=C[C@H](CO)O2)cc1F,RTM204,HEPAD79,<0.88 µM
Nc1nc2c(ncn2[C@@H]2C=C[C@H](CO)CC2)c(=O)[nH]1,-,HEPAD79,3 µg/mL
Nc1nc(=O)n([C@@H]2C[C@@H](O)[C@H](CO)O2)cc1Cl,-,2.2.15,10 µM
Cc1c(N)nc(N)nc1OCCOCP(=O)(O)O,-,HEPAD79,0.6 µg/mL
Nc1ccn([C@@H]2CS[C@H](CO)O2)c(=O)n1,M550V,-,8.5 µM
Nc1ncnc2c1ncn2[C@@H]1C=C[C@H](CO)O1,-,2.2.15,0.8 µM
Nc1ccn([C@@H]2CC[C@H](CO)O2)c(=O)n1,-,-,0.01 µM
Nc1nc2c(ncn2CCC(CO)CO)c(=O)[nH]1,-,HepG2 2.2.15,100 µM
Cc1cn([C@@H]2C[C@@H](F)[C@H](CO)O2)c(=O)[nH]c1=O,-,2.2.15,>10 µM
Cc1c(-c2cnccn2)ssc1=S,-,HepG2 2.2.15,<50 µM
Nc1ccn([C@@H]2C=C[C@H](CO)O2)c(=O)n1,RTM204,HepAD38,<0.06 µM
Nc1ccn([C@@H]2C[C@@H](F)[C@H](CO)O2)c(=O)n1,-,2.2.15,0.5 µM
CCCCN1C[C@H](O)[C@@H](O)[C@H](O)[C@H]1CO,-,HepG2 2.2.15,100–500 µM
Nc1ncnc2c1ncn2[C@@H]1C[C@@H](F)[C@H](CO)O1,-,2.2.15,>10 µM
CC1(C)OCC(CCCCN2C[C@H](O)[C@@H](O)[C@H](O)[C@H]2CO)O1,-,HepG2 2.2.15,>100 µM
Cc1cn([C@@H]2CC[C@H](CO)O2)c(=O)[nH]c1=O,-,2.2.15,>10 µM
C[C@H](Cn1cnc2c(N)ncnc21)OCP(=O)(O)O,-,HepAD38,0.05 µg/mL
Nc1ncnc2c1ncn2CCOCP(=O)(O)O,M204I,-,1.71 µM
Nc1nc2c(ncn2C=C2CC2CO)c(=O)[nH]1,-,HEPAD79,>100 µg/mL
Nc1ccn([C@@H]2CS[C@H](CO)O2)c(=O)n1,-,HepG2 2.2.15,0.116 µM
OC[C@H]1NC[C@H](O)[C@@H](O)[C@@H]1O,-,HepG2 2.2.15,100–500 µM

For reference, 4 entries again:

SMILES | strain or isolate | cell line | result
Nc1nc2c(ncn2C=C2CC2CO)c(=O)[nH]1 | - | HEPAD79 | >100 µg/mL
Cc1cn([C@@H]2CC[C@H](CO)O2)c(=O)[nH]c1=O | - | 2.2.15 | >10 µM
Nc1ncnc2c1ncn2CCOCP(=O)(O)O | - | HepAD38 | 0.05 µg/mL
Nc1ccn([C@@H]2CS[C@H](CO)O2)c(=O)n1 | M204V | - | 0.96 µM

ECn: concentration that inhibits the pathogen or its effect by n%. Two numbers with a dash give a range or band. An empty or dashed field is not shown.